Experimental data from publication PMC8557866, “Novel Small Molecule Growth Inhibitor Affecting Bacterial Outer Membrane Reduces Extraintestinal Pathogenic Escherichia coli (ExPEC) Infection in Avian Model” (Microbiology Spectrum, 2021).

Assays:
[1] = system: cecal microbiota of chickens; assay: Effect of GIs on cecal microbiota of chickens (16S rRNA metagenomics); format: in vivo
[2] = system: serum metabolites of chickens; assay: Effect of GIs on serum metabolome of chickens (LC-MS); format: in vivo; settings: vs NC chickens
[3] = family level, individual animal 1 of group
[4] = family level, individual animal 2 of group
[5] = family level, individual animal 3 of group
[6] = family level, individual animal 4 of group
[7] = family level, individual animal 5 of group

## COc1ccc(CNCc2cccc(C(F)(F)F)c2)cc1OCC(O)CN1CCCC1 (centres unmarked) [GI-7]
[1]; cecum, class level, printed as change 4% to 14%
  Bacilli abundance: 14%
[1]; cecum, family level, printed as change 1% to 11%
  Lactobacillaceae population: 11%
[1]; cecum, order level, printed as change 4% to 14%
  Lactobacillales abundance: 14%
[1]; cecum, species, printed as change 0% to 4%
  Lactobacillus helveticus abundance: 4%
[1]; cecum, species, printed as change 0% to 7%
  Lactobacillus zeae abundance: 7%
[1]; [3]
  Relative abundance (%) Bacillaceae: 0.0%
  Relative abundance (%) Bifidobacteriaceae: 0.0%
  Relative abundance (%) Clostridiaceae 1: 0.0%
  Relative abundance (%) Enterobacteriaceae: 13.2%
  Relative abundance (%) Enterococcaceae: 5.4%
  Relative abundance (%) Erysipelotrichaceae: 0.0%
  Relative abundance (%) Lachnospiraceae: 41.6%
  Relative abundance (%) Lactobacillaceae: 11.5%
  Relative abundance (%) Non-Enterobacteriaceae Gammaproteobacteria: 0.0%
  Relative abundance (%) Peptostreptococcaceae: 11.1%
  Relative abundance (%) Ruminococcaceae: 16.9%
  Relative abundance (%) Unassigned: 0.0%
[1]; [4]
  Relative abundance (%) Bacillaceae: 0.0%
  Relative abundance (%) Bifidobacteriaceae: 0.0%
  Relative abundance (%) Clostridiaceae 1: 0.0%
  Relative abundance (%) Enterobacteriaceae: 17.9%
  Relative abundance (%) Enterococcaceae: 0.0%
  Relative abundance (%) Erysipelotrichaceae: 0.0%
  Relative abundance (%) Lachnospiraceae: 62.5%
  Relative abundance (%) Lactobacillaceae: 13.0%
  Relative abundance (%) Non-Enterobacteriaceae Gammaproteobacteria: 0.0%
  Relative abundance (%) Peptostreptococcaceae: 0.0%
  Relative abundance (%) Ruminococcaceae: 6.4%
  Relative abundance (%) Unassigned: 0.0%
[1]; [5]
  Relative abundance (%) Bacillaceae: 3.0%
  Relative abundance (%) Bifidobacteriaceae: 0.0%
  Relative abundance (%) Clostridiaceae 1: 0.0%
  Relative abundance (%) Enterobacteriaceae: 5.5%
  Relative abundance (%) Enterococcaceae: 8.8%
  Relative abundance (%) Erysipelotrichaceae: 3.8%
  Relative abundance (%) Lachnospiraceae: 49.6%
  Relative abundance (%) Lactobacillaceae: 7.7%
  Relative abundance (%) Non-Enterobacteriaceae Gammaproteobacteria: 0.0%
  Relative abundance (%) Peptostreptococcaceae: 5.2%
  Relative abundance (%) Ruminococcaceae: 16.1%
  Relative abundance (%) Unassigned: 0.0%
[1]; [6]
  Relative abundance (%) Bacillaceae: 0.0%
  Relative abundance (%) Bifidobacteriaceae: 0.0%
  Relative abundance (%) Clostridiaceae 1: 0.0%
  Relative abundance (%) Enterobacteriaceae: 23.4%
  Relative abundance (%) Enterococcaceae: 0.0%
  Relative abundance (%) Erysipelotrichaceae: 5.5%
  Relative abundance (%) Lachnospiraceae: 37.8%
  Relative abundance (%) Lactobacillaceae: 11.8%
  Relative abundance (%) Non-Enterobacteriaceae Gammaproteobacteria: 0.0%
  Relative abundance (%) Peptostreptococcaceae: 7.9%
  Relative abundance (%) Ruminococcaceae: 13.4%
  Relative abundance (%) Unassigned: 0.0%
[1]; [7]
  Relative abundance (%) Bacillaceae: 0.0%
  Relative abundance (%) Bifidobacteriaceae: 0.0%
  Relative abundance (%) Clostridiaceae 1: 0.0%
  Relative abundance (%) Enterobacteriaceae: 12.5%
  Relative abundance (%) Enterococcaceae: 0.0%
  Relative abundance (%) Erysipelotrichaceae: 5.3%
  Relative abundance (%) Lachnospiraceae: 59.6%
  Relative abundance (%) Lactobacillaceae: 10.9%
  Relative abundance (%) Non-Enterobacteriaceae Gammaproteobacteria: 0.0%
  Relative abundance (%) Peptostreptococcaceae: 0.0%
  Relative abundance (%) Ruminococcaceae: 11.5%
  Relative abundance (%) Unassigned: 0.0%
[1]; genus level
  Abundance (%) in cecal microbiota: Anaerostipes: 0.0%
  Abundance (%) in cecal microbiota: Anaerotruncus: 0.0%
  Abundance (%) in cecal microbiota: Bacillus: 0.6%
  Abundance (%) in cecal microbiota: Bifidobacterium: 0.0%
  Abundance (%) in cecal microbiota: Blautia: 1.8%
  Abundance (%) in cecal microbiota: Butyricicoccus: 4.0%
  Abundance (%) in cecal microbiota: CAG-56: 0.0%
  Abundance (%) in cecal microbiota: Caproiciproducens: 0.0%
  Abundance (%) in cecal microbiota: Clostridioides: 0.0%
  Abundance (%) in cecal microbiota: Clostridium sensu stricto 1: 0.0%
  Abundance (%) in cecal microbiota: Enterococcus: 2.9%
  Abundance (%) in cecal microbiota: Erysipelatoclostridium: 0.0%
  Abundance (%) in cecal microbiota: Escherichia -Shigella: 12.3%
  Abundance (%) in cecal microbiota: Flavonifractor: 3.8%
  Abundance (%) in cecal microbiota: Lachnoclostridium: 13.0%
  Abundance (%) in cecal microbiota: Lactobacillus: 11.02^a^,^b %
  Abundance (%) in cecal microbiota: Negativibacillus: 0.0%
  Abundance (%) in cecal microbiota: Oscillibacter: 3.0%
  Abundance (%) in cecal microbiota: Ruminiclostridium 9: 0.0%
  Abundance (%) in cecal microbiota: Ruminococcaceae UCG-005: 0.0%
  Abundance (%) in cecal microbiota: Ruminococcaceae UCG-014: 0.0%
  Abundance (%) in cecal microbiota: Sellimonas: 0.0%
  Abundance (%) in cecal microbiota: Shuttleworthia: 1.7%
  Abundance (%) in cecal microbiota: Tyzzerella: 0.0%
  Abundance (%) in cecal microbiota: UBA1819: 0.0%
  Abundance (%) in cecal microbiota: [Clostridium] inoculum group: 0.8%
  Abundance (%) in cecal microbiota: [Eubacterium] coprostanoligenes group: 1.5%
  Abundance (%) in cecal microbiota: [Ruminococcus] gauvreauii group: 3.0%
  Abundance (%) in cecal microbiota: [Ruminococcus] torques group: 24.8%
[2]
  Fold change: 15S-Hydroxypentaenoate: −1.3
  Fold change: 19-Hydroxytestosterone: −2.4
  Fold change: (15R)-Hydroxypentaenoate: −1.3
  Fold change: L-Arginine: 1.0
  Fold change: Linoleate: −1.8
  Fold change: Oleate: 2
  Fold change: α-Carboxyethylhydroxychroman: −2.8
